Source: publication doi:10.1101/809392
The exact form of at least one protein or probe is not confirmed.

Tested on: UmuDAb full-length
Experiment: EMSA
Settings: 25 nM DNA, 100 ng salmon sperm DNA

“TGTCGGGAGATAGCATACCAAAGCTGTGAAAAAACACTTATAGATAACTTTGTGGATAACTCAAAAAACAAACACTTGAGTGAATTTAAATTTAGTGAAGAAATAATTTGTTTAATATTCATACATAGGAAATATGAATAGATTATGACATTTAAGAACAATAAATAGATAATAAAAATACCTGAAAATTCAAAGATTAATAAAATGCAACAAAACA (double strand) [bfmR promoter probe]”: binds.
